According to patent publication US20070033061A1 (priority 2005, published 2007):
Converted amounts (≈) assume the structure as drawn.

How the values were obtained:
[1] = tested on: E. coli lexA(S119A) strain
B. anthracis Sterne = B. anthracis Sterne wild type

## O=C(O)c1cn(C2CC2)c2cc(N3CCNCC3)c(F)cc2c1=O [ciprofloxacin]
[1]; LexA(Ind-) strain, amount depending on the antibiotic concentration
  reduction in the frequency of developing resistance to ciprofloxacin: more than two orders of magnitude
[1]; lexA(S119A) strain, 35 ng/mL ciprofloxacin, data not shown
  reduction of the frequency with which bacteria evolved resistance to ciprofloxacin: approximately 100 fold
B. anthracis Sterne
  MIC wt: 0.05 µg/mL (≈ 0.151 µM)
